Data: US8008251B2, “Macrocyclic inhibitors of hepatitis C virus” (Tibotec Pharmaceuticals Ltd., priority 2005, dated 2011)

Chains of the proteins cited; added tags and fusions are not shown. Lines headed by an entry give the natural chain unless they say otherwise; changes in a name come on top. Residues count along the entry.
UniProt P27958, 1027-1657 limits assumed: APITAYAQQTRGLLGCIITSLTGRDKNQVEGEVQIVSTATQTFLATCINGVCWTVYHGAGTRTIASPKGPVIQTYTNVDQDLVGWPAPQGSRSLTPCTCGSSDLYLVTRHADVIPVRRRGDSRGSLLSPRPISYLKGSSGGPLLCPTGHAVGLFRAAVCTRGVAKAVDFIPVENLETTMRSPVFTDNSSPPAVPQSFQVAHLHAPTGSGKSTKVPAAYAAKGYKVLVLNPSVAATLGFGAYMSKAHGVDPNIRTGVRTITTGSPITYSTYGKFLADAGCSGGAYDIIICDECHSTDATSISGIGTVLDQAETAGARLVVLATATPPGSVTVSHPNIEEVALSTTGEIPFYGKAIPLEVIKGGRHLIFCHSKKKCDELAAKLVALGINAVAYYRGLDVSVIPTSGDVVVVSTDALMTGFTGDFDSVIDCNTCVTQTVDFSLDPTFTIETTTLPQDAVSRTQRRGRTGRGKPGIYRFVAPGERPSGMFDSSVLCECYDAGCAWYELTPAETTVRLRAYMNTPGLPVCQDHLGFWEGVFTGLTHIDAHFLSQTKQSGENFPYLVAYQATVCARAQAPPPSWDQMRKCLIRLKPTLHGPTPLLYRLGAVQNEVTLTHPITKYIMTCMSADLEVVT

Legend:
[1] = test system: HCV replicons (NS3-NS5B regions of HCV type 1b) in Huh-7 luc/neo cells; assay: HCV replicon assay (Huh-Luc, luciferase readout); type: cell-based; settings: read-out: EC50 (μM) Replicon assay, three days incubation, luciferase activity
[2] = molecular target: full-length hepatitis C NS3 protease enzyme with NS4A cofactor (HCV NS3/4A protease) (Hepatitis C virus genotype 1a, UniProt P27958); assay: Enzymatic inhibition assay of HCV NS3/4A protease; settings: read-out: Ki (nM) Enzymatic assay; 1 nM enzyme, 25 μM NS4A cofactor, 0.5 μM substrate, competitive inhibition model
[3] = In vitro metabolic blocking by ritonavir in human liver microsomes; type: in vitro ADME; settings: human liver microsomes 1 mg/ml

For `COc1ccc2c(O[C@@H]3C[C@H]4C(=O)N[C@]5(C(=O)NS(=O)(=O)C6CC6)C[C@H]5/C=C\CCCCN(C)C(=O)N4C3)cc(-c3nc(C(C)C)cs3)nc2c1`, the EC50 [1] was 0.055 µM, the Ki [2] was 0.45 nM and the “% Detected Compound, 30′, ritonavir” value ([3]; 3 μM test compound + 10 μM ritonavir, 30 min) was 93%. The “% Detected Compound, 120′, ritonavir” value ([3]; 3 μM test compound + 10 μM ritonavir, 120 min) was 102%, the “% Detected Compound, 30′, No Booster” value ([3]; 3 μM test compound, 30 min, no ritonavir) was 71% and the “% Detected Compound, 120′, No Booster” value ([3]; 3 μM test compound, 120 min, no ritonavir) was 20%.
